Test results from PubChem BioAssay AID1794808 (University of Kansas High Throughput Screening Laboratory, 2022).
This is a selection; strong and weak results do not stand in their true shares. The source made the active and inactive calls. Cut-off read from the data, not from the text of the source: active = inhibition above about 50%; inactive = the rest.

tested on: Plasmodium falciparum apicoplast DNA polymerase (apPOL); assay: Pf-apPOL inhibitors, biochemical, fluorescence (AID 1794808); conditions: Recombinant Pf-apPOL, molecular beacon fluorescence, 1.5 h; at 10 µM; active compounds read high

Row | Compound | inhibition
1 | O=[N+]([O-])C1([N+](=O)[O-])COCOC1 | inactive: -5%
2 | CC(CNC(=O)C(C)([N+](=O)[O-])[N+](=O)[O-])([N+](=O)[O-])[N+](=O)[O-] | inactive: -1.6%
3 | Cc1cc([N+](=O)[O-])c(NCC(C)([N+](=O)[O-])[N+](=O)[O-])c([N+](=O)[O-])c1[N+](=O)[O-] | inactive: -9%
4 | O=[N+]([O-])c1cc2c(c([N+](=O)[O-])c1)-c1c(cc([N+](=O)[O-])cc1[N+](=O)[O-])C2=NO | inactive: 2%
5 | CC(CNc1c([N+](=O)[O-])cc([N+](=O)[O-])c(Cl)c1[N+](=O)[O-])([N+](=O)[O-])[N+](=O)[O-] | inactive: -2.3%
6 | O=[N+]([O-])c1nonc1-c1n[nH]c(-c2nonc2[N+](=O)[O-])n1 | inactive: 3.8%
7 | CC(CNc1c([N+](=O)[O-])cc(Cl)cc1[N+](=O)[O-])([N+](=O)[O-])[N+](=O)[O-] | inactive: -12.6%
8 | O=c1[nH]c2c([N+](=O)[O-])c([N+](=O)[O-])c([N+](=O)[O-])c([N+](=O)[O-])c2[nH]1 | inactive: -2%
9 | CC(CCNC(=O)NCCC(C)([N+](=O)[O-])[N+](=O)[O-])([N+](=O)[O-])[N+](=O)[O-] | inactive: 4.7%
10 | O=[N+]([O-])c1nonc1NCNc1nonc1[N+](=O)[O-] | inactive: -6.2%
11 | O=[N+]([O-])c1cc([N+](=O)[O-])c(/C=N/O)c([N+](=O)[O-])c1 | inactive: 40.2%
12 | O=[N+]([O-])c1cc([N+](=O)[O-])c2c(c1)[nH][n+]1c3cc([N+](=O)[O-])cc([N+](=O)[O-])c3nn21 | inactive: 1.3%
13 | O=[N+]([O-])c1ccc(-n2ncc3c([N+](=O)[O-])cc([N+](=O)[O-])cc32)c([N+](=O)[O-])c1 | inactive: 4.2%
14 | CC(CNc1c([N+](=O)[O-])cc(F)cc1[N+](=O)[O-])([N+](=O)[O-])[N+](=O)[O-] | inactive: -2.3%
15 | O=[N+]([O-])c1nonc1COc1nonc1[N+](=O)[O-] | inactive: -0.8%
16 | O=[N+]([O-])c1cc([N+](=O)[O-])c(C=Nc2ccccc2)c([N+](=O)[O-])c1 | inactive: 0.7%
17 | O=[N+]([O-])c1cc2c(c([N+](=O)[O-])c1[N+](=O)[O-])OCCO2 | inactive: -2.6%
18 | O=[N+]([O-])c1cc([N+](=O)[O-])c2c(c1)S(=O)(=O)c1cc([N+](=O)[O-])cc([N+](=O)[O-])c1N2 | inactive: -0.6%
